Counter-ions that a name gives are not always drawn.
Test: Corrosion testing on metal coupons
Conditions: Aluminum coupon
[1] = 0.3% active in ethanol added as a 20% or 30% solution in propylene glycol, 7 days (samples 5-8)
[2] = 0.3% active in ethanol added directly, 5 days (samples 1, 2)

Compound | corrosion Results (visual) [1] | corrosion Results (visual) [2] | corrosion Results (visual) (0.3% in ethanol added directly, 7 days (samples 9, 10))
CCCCCCCCN=c1ccn(CCCCCCCCCCn2ccc(=NCCCCCCCC)cc2)cc1 [Octenidine HCl, Octenidine dihydrochloride] | Uniform corrosion on | Corrosion on majority of | –
CCCCCCCCCCCCCCCCCC(=O)O.CCCCCCCCCCCCCCCCCC(=O)O.CCCCCCCCN=c1ccn(CCCCCCCCCCn2ccc(=NCCCCCCCC)cc2)cc1 [Octenidine distearate, octenidine distearate] | Vey little corrosion except | Vey little corrosion except | –
CCCCCCCCCCCCCCCCCC(=O)O [stearic acid] | – | – | No corrosion

Reference: patent US9687432B2, “Antimicrobial bispyridine amine compositions and uses” (LONZA INC., priority 2012, dated 2017)
